Compound potency records, mixed from different reports. Data source: NIAID ChemDB in PubChem.

Common to all: toxicity to cultured cells; cell line: C8166; endpoint: CC50

Conditions beyond the fields shown may differ between rows.

| compound | value |
|---|---|
| CN(C)C(=O)[C@@H](NC(=O)Cc1ccccc1)[C@@H]1N[C@@H](C(=O)NCCNC(=O)[C@@H]2N[C@@H]([C@H](NC(=O)Cc3ccccc3)C(=O)N(C)C)SC2(C)C)C(C)(C)S1 | >100 µM |
| O=C1c2c(O)cc(O[C@@H]3C[C@@H](O)[C@H](O)[C@@H](CO)O3)cc2O[C@H](c2ccc(O)cc2)[C@H]1O | 200 µg/mL |
| CS(=O)(=O)O[C@H]1C[C@H](n2ccc(=O)[nH]c2=O)O[C@@H]1COP(=O)(OCC(Cl)(Cl)Cl)OCC(Cl)(Cl)Cl | >100 µM |
| COC(=O)CCC(C)[C@H]1CCC2C3CC[C@@H]4C[C@H](OC(=O)c5ccccc5)CC[C@]4(C)C3=C(NC(=O)OCc3ccccc3)C(=O)[C@@]21C | 100 µM |
| CN(C)Nc1ccn([C@H]2C[C@H](N=[N+]=[N-])[C@@H](CO)O2)c(=O)n1 | 500 µM |
| Cc1cn([C@H]2C[C@H](N=[N+]=[N-])[C@@H](CO)O2)c(=O)[nH]c1=O | >100 µM |
| CC(C)[C@H](NC(=O)c1ccc2ccccc2n1)C(=O)N[C@@H](Cc1ccccc1)[C@H](O)CN1CC[C@@H](OCc2ccncc2)C[C@H]1C(=O)NC(C)(C)C | >1 µM |
| Cc1cn([C@H]2C[C@H](N=[N+]=[N-])[C@@H](CO)O2)c(=O)nc1NO | 500 µM |
| O=c1c(O[C@@H]2O[C@H](CO)[C@@H](O)[C@H](O)[C@H]2O)c(-c2ccc(O)cc2)oc2cc(O)cc(O)c12 | 100 µg/mL |
| Cc1cccc(C)c1OCC(=O)N[C@@H](Cc1ccccc1)[C@H](O)CN1CC[C@@H](Sc2ccncc2)C[C@H]1C(=O)NC(C)(C)C | >1 µM |
| O=c1c(O)c(-c2ccc(O)cc2O)oc2cc(O)cc(O)c12 | 100 µg/mL |
| Cc1cn([C@H]2C[C@H](N=[N+]=[N-])[C@@H](COP(=O)(Oc3ccc([N+](=O)[O-])cc3)Oc3ccc([N+](=O)[O-])cc3)O2)c(=O)[nH]c1=O | 40 µM |
| CC(=O)C[C@@H](C)[C@H]1CC[C@@]2(C)C3C(=O)C[C@@]45OC[C@]3(CC[C@]12C)C4CCC(=O)C5(C)C | 165.2 µg/mL |
| Oc1cc(O)c2c(c1)O[C@H](c1ccc(O)c(O)c1)[C@H](O)C2 | >100 µg/mL |
| Nc1ncnc2c1ncn2CCOCP(=O)(O)O | >40 µM |
| CCNC(=O)[C@@H](NC(=O)Cc1ccccc1)[C@@H]1N[C@@H](C(=O)NCCNC(=O)[C@@H]2N[C@@H]([C@H](NC(=O)Cc3ccccc3)C(=O)NCC)SC2(C)C)C(C)(C)S1 | >100 µM |
| Cc1cn([C@H]2C[C@H](OS(C)(=O)=O)[C@@H](CO)O2)c(=O)[nH]c1=O | >100 µM |
| Oc1cc(O)c2c(c1)O[C@@H](c1ccc(O)c(O)c1)[C@@H](O)C2 | >100 µg/mL |
| CONc1nc(=O)n([C@H]2C[C@H](N=[N+]=[N-])[C@@H](CO)O2)cc1C | 200 µM |
| O=c1c(O[C@@H]2O[C@H](CO)[C@@H](O)[C@H](O)[C@H]2O)c(-c2ccc(O)c(O)c2)oc2cc(O)cc(O)c12 | >100 µg/mL |
| CO[C@@H]1O[C@]23CC(=O)C4[C@@]1(CC[C@]1(C)[C@@H]([C@H](C)CC(=O)C=C(C)C)CC[C@@]41C)C2CCC(=O)C3(C)C | >200 µg/mL |
| O=C1C[C@@H](c2ccc(O)cc2)Oc2cc(O[C@@H]3C[C@@H](O)[C@H](O)[C@@H](CO)O3)cc(O)c21 | >100 µg/mL |
| COc1ccc2oc3c([N+](=O)[O-])cccc3c2c1 | >200 µg/mL |
| O=c1c(O[C@@H]2O[C@H](CO)[C@@H](O)[C@H](O)[C@H]2O)c(-c2ccc(O)cc2)oc2cc(O)cc(O)c12 | 100 µg/mL |
| N#Cc1ccc2oc3cc(F)ccc3c2c1 | 150 µg/mL |
| CC(C)(C)NC(=O)[C@@H]1C[C@@H]2CCCC[C@@H]2CN1C[C@@H](O)[C@H](Cc1ccccc1)NC(=O)[C@H](CC(N)=O)NC(=O)c1ccc2ccccc2n1 | 20 µM |
| Oc1cc(O)c2c(c1)O[C@H](c1cc(O)c(O)c(O)c1)[C@H](O)C2 | >100 µg/mL |
| Cc1cccc(C)c1OCC(=O)N[C@@H](Cc1ccccc1)[C@H](O)CN1CC[C@@H](SCc2ccncc2)C[C@H]1C(=O)NC(C)(C)C | >1 µM |
| CCOC(=O)NC1=C2C(CC[C@@H]3C[C@H](OC(=O)c4ccccc4)CC[C@]23C)C2CC[C@H](C(C)CCC(=O)OC)[C@@]2(C)C1=O | 100 µM |
| CO[C@H]1/C=C/O[C@@]2(C)Oc3c(C)c(O)c4c(c3C2=O)C(=O)C(SCCCCCCCOC(=O)CCCC(=O)OC[C@H]2O[C@@H](n3cc(C)c(=O)[nH]c3=O)C[C@@H]2N=[N+]=[N-])=C(NC(=O)/C(C)=C\C=C\[C@H](C)[C@H](O)[C@@H](C)[C@@H](O)[C@@H](C)[C@H](OC(C)=O)[C@@H]1C)C4=O | >30 µM |
| COc1cc(-c2oc3cc(O)cc(O)c3c(=O)c2O[C@@H]2O[C@H](CO[C@@H]3O[C@@H](C)[C@H](O)[C@@H](O)[C@H]3O)[C@@H](O)[C@H](O)[C@H]2O)ccc1OC1O[C@H](CO)[C@@H](O)[C@H](O)[C@H]1O | >100 µg/mL |
| CC1(C)S[C@H]([C@H](NC(=O)Cc2ccccc2)C(=O)NCC2CCCCC2)N[C@H]1C(=O)NCCNC(=O)[C@@H]1N[C@@H]([C@H](NC(=O)Cc2ccccc2)C(=O)NCC2CCCCC2)SC1(C)C | >100 µM |
| CC(=O)O[C@H]1C[C@H](n2cc(C)c(=O)[nH]c2=O)O[C@@H]1CO | >100 µM |
| CCO[C@@H]1O[C@]23CC(=O)C4[C@@]1(CC[C@]1(C)[C@@H]([C@H](C)CC(C)=O)CC[C@@]41C)C2CCC(=O)C3(C)C | 54.8 µg/mL |
| O=[N+]([O-])c1cccc2c1oc1ccccc12 | >200 µg/mL |
| CC(C)=CC(=O)C[C@@H](C)[C@H]1CC[C@@]2(C)C3C(=O)[C@@H]4O[C@]45C(CCC(=O)C5(C)C)[C@]3(C=O)CC[C@]12C | >200 µg/mL |
| O=c1c(O[C@@H]2OC[C@H](O)[C@H](O)[C@H]2O)c(-c2ccc(O)c(O)c2)oc2cc(O)cc(O)c12 | >100 µg/mL |
| Oc1cc(O)c2c(c1)O[C@H](c1cc(O)c(O)c(O)c1)[C@@H](O)C2 | >80 µg/mL |
| CO[C@H]1/C=C/O[C@@]2(C)Oc3c(C)c(O)c4c(c3C2=O)C(=O)C(SCCOC(=O)CCC(=O)OC[C@H]2O[C@@H](n3cc(C)c(=O)[nH]c3=O)C[C@@H]2N=[N+]=[N-])=C(NC(=O)/C(C)=C\C=C\[C@H](C)[C@@H]2OC(C)(C)O[C@@H]([C@@H](C)[C@H](OC(C)=O)[C@@H]1C)[C@@H]2C)C4=O | >30 µM |
| O=c1cc(-c2ccccc2)oc2cc(O)cc(O)c12 | 50 µg/mL |
| O=c1c2cccn2c2ccc(F)cc2n1CCNC(=S)Nc1ccc(Br)cn1 | 15 µM |
| Cc1cn([C@H]2C[C@H](N=[N+]=[N-])[C@@H](CO)O2)c(=O)[nH]c1=O | 403 µM |
| O=c1c2cccn2c2cccc(F)c2n1CCNC(=S)Nc1ccc(Br)cn1 | 200 µM |
| O=C1c2c(O)cc(O[C@@H]3C[C@@H](O)[C@H](O)[C@@H](CO)O3)cc2O[C@H](c2ccc(O)c(O)c2)[C@H]1O | 350 µg/mL |
| C[C@H](C/C=C/C(C)(C)O)[C@H]1CC[C@@]2(C)C3C=C[C@@]45O[C@H](O)[C@]3(CC[C@]12C)C4CC[C@H](O)C5(C)C | 60 µg/mL |
| O=C(Oc1cc(O)c2c(c1)O[C@H](c1ccc(O)c(O)c1)[C@@H](O)C2)c1cc(O)c(O)c(O)c1 | >100 µg/mL |
| O=C1c2c(O)cc(O)cc2O[C@H](c2ccc(O)c(O)c2)[C@H]1O | 100 µg/mL |
| CC1(C)S[C@H]([C@H](NC(=O)Cc2ccccc2)C(=O)NCC(F)(F)F)N[C@H]1C(=O)NCCNC(=O)[C@@H]1N[C@@H]([C@H](NC(=O)Cc2ccccc2)C(=O)NCC(F)(F)F)SC1(C)C | >100 µM |
| Cc1cn([C@H]2C[C@H](N=[N+]=[N-])[C@@H](CO)O2)c(=O)[nH]c1=O | >1000 µM |
| CO[C@H]1/C=C/O[C@@]2(C)Oc3c(C)c(O)c4c(c3C2=O)C(=O)C(SCCOC(=O)CCCC(=O)OC[C@@H]2O[C@H](n3cc(C)c(=O)[nH]c3=O)C[C@H]2N=[N+]=[N-])=C(NC(=O)/C(C)=C\C=C\[C@H](C)[C@H](O)[C@@H](C)[C@@H](O)[C@@H](C)[C@H](OC(C)=O)[C@@H]1C)C4=O | >30 µM |
| O=C1C[C@@H](c2cc(O)ccc2O)Oc2cc(O[C@@H]3C[C@@H](O)[C@H](O)[C@@H](CO)O3)cc(O)c21 | >100 µg/mL |
| Cc1cn([C@H]2C[C@H](N=[N+]=[N-])[C@@H](COP(=O)(Oc3ccc(C(F)(F)F)cc3)Oc3ccc(C(F)(F)F)cc3)O2)c(=O)[nH]c1=O | 500 µM |

7 of the rows above, restated:

{"compound": "CCOC(=O)NC1=C2C(CC[C@@H]3C[C@H](OC(=O)c4ccccc4)CC[C@]23C)C2CC[C@H](C(C)CCC(=O)OC)[C@@]2(C)C1=O", "value": "100 µM"}
{"compound": "CN(C)Nc1ccn([C@H]2C[C@H](N=[N+]=[N-])[C@@H](CO)O2)c(=O)n1", "value": "500 µM"}
{"compound": "Cc1cn([C@H]2C[C@H](OS(C)(=O)=O)[C@@H](CO)O2)c(=O)[nH]c1=O", "value": ">100 µM"}
{"compound": "CONc1nc(=O)n([C@H]2C[C@H](N=[N+]=[N-])[C@@H](CO)O2)cc1C", "value": "200 µM"}
{"compound": "CC(C)(C)NC(=O)[C@@H]1C[C@@H]2CCCC[C@@H]2CN1C[C@@H](O)[C@H](Cc1ccccc1)NC(=O)[C@H](CC(N)=O)NC(=O)c1ccc2ccccc2n1", "value": "20 µM"}
{"compound": "CO[C@H]1/C=C/O[C@@]2(C)Oc3c(C)c(O)c4c(c3C2=O)C(=O)C(SCCOC(=O)CCC(=O)OC[C@H]2O[C@@H](n3cc(C)c(=O)[nH]c3=O)C[C@@H]2N=[N+]=[N-])=C(NC(=O)/C(C)=C\\C=C\\[C@H](C)[C@@H]2OC(C)(C)O[C@@H]([C@@H](C)[C@H](OC(C)=O)[C@@H]1C)[C@@H]2C)C4=O", "value": ">30 µM"}
{"compound": "O=c1c(O[C@@H]2OC[C@H](O)[C@H](O)[C@H]2O)c(-c2ccc(O)c(O)c2)oc2cc(O)cc(O)c12", "value": ">100 µg/mL"}

CCn is the concentration with n% toxicity to the cells.